Earlier results in patent publication US20210270830A1, “BREVETOXIN ASSAY DEVICE, SYSTEM, AND METHOD” (published 2021).

System: MARBIONC Development Group, LLC polyclonal antibody (anti-BTX pAb)
Conditions: statement in text on the approved pAb ELISA kit

Substance | Detection by the current approved ELISA kit
BTX-6 | not been found to detect
BTX-B4 | not been found to detect
